Test results as given in patent US20190327961A1, “STABLE SOLID COMPOSITION BASED ON AN AROMATIC COMPOUND AND USES THEREOF” (priority 2016, published 2019).

Test system: stem rot of cherry tomatoes
Test: Washing of cherry tomatoes, damaged at the stem: stem rot
Type: in vivo
Settings: 27° C.

## chlorine
1 d
  Percentage of Cherry Tomatoes that Have Stem Rot: 6%
2 d
  Percentage of Cherry Tomatoes that Have Stem Rot: 15%
3 d
  Percentage of Cherry Tomatoes that Have Stem Rot: 22%
4 d
  Percentage of Cherry Tomatoes that Have Stem Rot: 35%
5 d
  Percentage of Cherry Tomatoes that Have Stem Rot: 47%
6 d
  Percentage of Cherry Tomatoes that Have Stem Rot: 60%
